Data taken from patent publication US20240109955A1 (published 2024).

B1: B8 (antibody, V domains shown)
VH: EVQLVESGGALIQPGGSLRLSCAASGIIVSANYMSWVRQAPGKGLEWVSVIYSGGSTFYADSVKGRFTISRDNSKNTLYLEMNSLRAEDTAVYYCARDAPILGVSDWGQGTLVTVSS
VL: EIVMTQSPAILSVSPGERATLSCRASQSVAINLAWYQQKPGQAPRLLIYAASSRATGIPGRFSGSGSETNFTLTISSLQSGDFAVYYCQQYITWPPSYTFGQGTKLEIK
B2: A23-58H/A23-58L93VGLTG (antibody, V domains shown)
VH: QMQLVQSGPEVKKPGTSVKVSCKASGFTFTSSAVQWVRQRQRLEWIGWIVVGSGNTNYAQKFQERVTITRDMSTSTAYMELSSLRSEDTAVYYCAAPNCSNVVCYDGFDIWGQGTMVTVSS
VL: EIVLTQSPGTLSLSPGERATLSCRASQSVSSSYLAWYQQKPGQAPRLLIYSASSRATGIPDRFSGSGSGTDFTLTISRLEPEDFAVYFCQQYVGLTGWTFGQGTKVEIK
B3: E8 (antibody, V domains shown)
VH: QVTLRESGPALVKPTQTLTLTCTFSGFSLSTRGVCVSWIRQPPGKALEWLAFIDWDDDKYYNTSLKTRLTISKDTSKNQVVLTMTNVHPVDTATYYCARISSHHGSSWCTTFDYWGQGALVTVSA
VL: DTVMTQSPLSLPVTPGEPASISCRSSQSLLNSNGYNYLDWYVQKPGQSPQLLIYLGSNRASGVPDRFSGSGSGTDFTLKISRVEAEDVGVYYCMQPLQTPLFTFGPGTKVEIK
B4: B8 (antibody, V domains shown)
VH: B1 VH
VL: B1 VL
B5: E12 (antibody, V domains shown)
VH: EVQLVESGGGLIQPGGSLRLSCAASGVIVSYNYMNWVRQAPGKGLEWVSVIYSGGSTFYADSVRGRFTISRDNSKNTLYLQMNSLRAEDTAVYYCARDLGPAGAFDIWGLGTMVTVSS
VL: EIVLTQSPGTLSLSPGETATLSCRASQSFSSDLAWYQQKPGQAPRLLIYGASSRATGIPDRFSGSGSGTDFTLTISRLEPADFAVYYCQQYGSSPPVTFGGGTKVEIK
B6: E8 (antibody, V domains shown)
VH: B3 VH
VL: B3 VL

Target: SARS-CoV-2 spike protein, Omicron sublineage BQ.1 (SARS-CoV-2, UniProt P0DTC2 14-1273)
Test: cell-based or functional assay

Binder	IC50, pseudovirus neutralization	IC80, pseudovirus neutralization
B1	15 nM	49.6 nM
B2	23.5 nM	87.7 nM
B3	124 nM	5190 nM

Target: SARS-CoV-2 spike protein, original Wuhan strain (WA1) (SARS-CoV-2, UniProt P0DTC2 14-1273)
Test: cell-based or functional assay

Binder	IC50, pseudovirus neutralization	IC80, pseudovirus neutralization
B4	0.0719 µg/mL	0.0841 µg/mL
B5	0.0778 µg/mL	0.118 µg/mL
B6	0.00877 µg/mL	0.0207 µg/mL
